Measured values from several laboratories, pooled; numbers as filed in NIAID ChemDB.

Common to all: growth or infection tests; species: HIV-1

ECn is the concentration giving n% inhibition of infection, replication or growth. a–b is a range or a potency band. Lines come from different laboratories, so protocols vary. An empty or dashed field is not shown.

compound | method | endpoint | cell line | mutations | conditions | strain or isolate | value
N#CC(N)=NCCCCCC[NH+]=C(N)NC(N)=NCCCCCCN=C(N)NC(N)=[NH+]CCCCCCN.[Cl-].[Cl-] | β-galactosidase | EC50 | HeLa | - | - | IIIB | 33 µM
CC(C)CN(C[C@H](O)[C@H](NC(=O)O[C@H]1CCOC1)Sc1ccccc1)S(=O)(=O)c1ccc(N)cc1 | syncytia | EC50 | MT-4 | - | - | - | >50 µM
Cn1cc(C(=O)O)c(=O)c2cc(N)c(N3CCN(c4ccccn4)CC3)cc21 | RT activity | EC50 | H9 | - | - | IIIB | 0.85 µM
Cc1cn([C@H]2C=C[C@@H](CO)O2)c(=O)[nH]c1=O | RT activity | EC50 | CEM + CEM TK- | - | - | IIIB | 2.355 µM
O=C1CS/C(=N\c2nc3ccccc3s2)N1c1ccccc1Br | MTT | EC50 | MT-4 | - | - | IIIB | >9 µM
CC1=C(C(=O)Nc2ccc(Cl)c(C(=O)OCC3CCC3)c2)SCCO1 | syncytia | EC50 | CEM | RT-E138K | - | TSAO-resistant (RT E138K) | 4.5 µg/mL
CCn1c(COC(N)=O)nc(C(C)C)c1Oc1cc(C#N)cc(C#N)c1 | β-galactosidase / reporter gene | EC50 | HeLaP4 | - | - | NL4-3 | 0.023 µM
COC(=O)[C@H](C)NP(=O)(OC[C@@H]1C=C[C@H](n2cc(C)c(=O)[nH]c2=O)O1)Oc1ccc(OC)cc1 | RT activity | EC50 | PBMC | - | - | IIIB | 0.033 µM
O=S(=O)(NCCN/C=C/c1ccccc1)c1cccc2cnccc12 | - | EC50 | - | - | - | LAI | >16.7 µM
COc1ccc([C@H]2c3c(cc4c(c3OC)OCO4)C[C@H]3CSC[C@@H]32)cc1OCc1ccccc1 | cytopathic effect / MTT | EC50 | MT-4 | - | - | IIIB | 3.3 µM
COc1ccc(S(=O)(=O)N(CCc2ccccc2)CC[C@H](O)CN(CC(C)C)S(=O)(=O)c2ccc(OC)cc2)cc1 | p24 | EC50 | CEM | - | - | IIIB | <1 µM
CC(=O)N[C@@H](CSC(=O)C(C)(C)C)C(=O)NCCSC(=O)c1ccccc1 | RT activity | EC50 | MDM | - | - | BaL | >150 µM
CCc1nc(CCO)n(CC)c1Oc1cc(C#N)cc(C#N)c1 | β-galactosidase / reporter gene | EC50 | HeLaP4 | - | - | NL4-3 | 0.01 µM
CC(C)CN(C[C@@H](O)[C@@H](NC(=O)O[C@H]1CCOC1)Sc1ccccc1)S(=O)(=O)c1ccc(N)cc1 | syncytia | EC50 | MT-4 | - | - | - | >50 µM
COc1cc(CCNC(=S)Nc2ccc(Cl)cn2)cc(OC)c1OC | MTT | EC50 | MT-2 | - | - | IIIB | 88.5 µM
COc1ccc(S(=O)(=O)N(CC(C)C)CC(O)CCN2CCN(Cc3cccnc3)C[C@H]2C(=O)NC(C)(C)C)cc1 | p24 | EC90 | CEM | - | - | IIIB | 1 µM
CC(O)C(=O)[O-].CC(O)C(=O)[O-].N#CC(N)=NCCN=C(N)NC(N)=[NH+]CCCCCC[NH+]=C(N)NC(N)=NCCN | β-galactosidase | EC50 | HeLa | - | - | IIIB | 989 µM
Nc1ccn([C@H]2S[C@@H](CO)C=C2F)c(=O)n1 | - | EC50 | PBMC | - | - | - | 0.12 µM
C#CCOCn1c(Cc2cccc(C(F)(F)F)c2)c(CC)c(=O)[nH]c1=O | MTT | EC50 | MT-4 | - | - | EFV-resistant (K103R V179D P225H) | >68 µM
CC1CN(S(=O)(=O)c2cccc3cnccc23)CCN1 | - | EC50 | - | - | - | LAI | >16.7 µM
S=C(Nc1ccc(Cl)c(Cl)c1)Nc1nc2ccccc2s1 | MTT | EC50 | MT-4 | - | - | IIIB | >15 µM
[N-]=[N+]=N[C@]1(CO)O[C@@H](n2cnc3c(=O)[nH]cnc32)C[C@@H]1O | - | EC50 | A301 + A3.01 | - | - | - | 0.07 µM
C=CCOCn1c(Cc2c(F)c(F)cc(F)c2F)c(CC)c(=O)[nH]c1=O | MTT | EC50 | MT-4 | - | - | N119 (Y181C) | 40 µM
CC(=O)N[C@@H](CS)C(=O)NCCSC(=O)c1ccccc1 | RT activity | EC50 | MDM | - | - | BaL | <150 µM
CCc1nc(C)n(CC)c1Oc1cc(C#N)cc(C#N)c1 | β-galactosidase / reporter gene | EC50 | HeLaP4 | - | - | NL4-3 | 0.032 µM
CC(=O)N[C@@H](CSC(C)=O)C(=O)NCCSC(C)=O | RT activity | EC50 | MDM | - | - | BaL | <150 µM
CC1=C(C(=O)Nc2cc(C(=O)OC(C)C)c(Cl)cc2F)SCCO1 | syncytia | EC50 | CEM | RT-Y181C | - | PYR-resistant (RT Y181C) | >10 µg/mL
S=C(Nc1ccc(I)cc1)Nc1nc2ccccc2s1 | MTT | EC50 | MT-4 | - | - | IIIB | >9.5 µM
COc1cc([C@H]2c3c(cc4c(c3OC)OCO4)C[C@H]3COC(=O)[C@@H]32)cc(C)c1OC | p24 | EC50 | H9 | - | - | IIIB | 3.62 µM
CC(C)CN(CC(F)(F)C(=O)[C@H](Cc1ccccc1)NC(=O)O[C@H]1CCOC1)S(=O)(=O)c1ccccc1 | p24 | EC90 | CEM | - | - | IIIB | 1 µM
COCC1=C(C(=O)Nc2ccc(Cl)c(C(=O)OC(C)C)c2)SCCO1 | syncytia | EC50 | CEM | - | - | IIIB | 0.7 µg/mL
NCCNS(=O)(=O)c1ccc(Cl)c2ccncc12 | - | EC50 | - | - | - | LAI | >16.7 µM
COc1ccc(OC)c(CCNC(=S)Nc2ccnc(=O)[nH]2)c1F | MTT | EC50 | MT-2 | - | - | IIIB | 65.2 µM
CCCC1=C(C(=O)Nc2ccc(Cl)c(C(=O)OC)c2)SCCO1 | syncytia | EC50 | CEM | - | - | IIIB | 0.75 µg/mL
C[C@]12CCCCC[C@@]1(O)Cn1cc(C(=O)NCc3cccc(Cl)c3F)c(=O)c(O)c1C2=O | GFP | EC50 | MT-4 | - | 100% human serum | NL4-3 | 0.046 µM
CC(=O)N[C@@H](CS)C(=O)NCCS | RT activity | EC50 | MDM | - | - | BaL | 40 µM
CCOC(=O)c1cc(NC(=O)C2=C(CC)OCCS2)ccc1Cl | syncytia | EC50 | CEM | RT-L100I | - | TIBO-resistant (RT L100I) | 0.8 µg/mL
COc1c2c(cc3c1[C@H](c1ccc(O)c(Oc4ccccc4)c1)[C@H]1C(=O)OC[C@@H]1C3)OCO2 | cytopathic effect / MTT | EC50 | MT-4 | - | - | IIIB | 5.22 µM
Nc1ccn([C@@H]2O[C@H](CO)C=C2F)c(=O)n1 | - | EC50 | PBMC | - | - | - | 0.37 µM
CC(C)CCC[C@@H](C)[C@H]1CC[C@H]2[C@@H]3CC[C@H]4C[C@@H](CCC=C(c5cc(Cl)c(O)c(C(=O)O)c5)c5cc(Cl)c(O)c(C(=O)O)c5)CC[C@]4(C)[C@H]3CC[C@]12C | cytopathic effect | EC50 | MT-4 | - | - | IIIB | 20 µM
N#Cc1ccc(Nc2nc(Oc3c(F)cc(-c4ccc(C#N)cc4)cc3F)c3sccc3n2)cc1 | MTT | EC50 | MT-4 | - | - | IIIB | 0.0123 µM
CCOCn1c(Cc2cccc(C(F)(F)F)c2)c(C(C)C)c(=O)[nH]c1=O | MTT | EC50 | - | K103N + Y181C | - | A17 | 12 µM
S=C(CCCc1ccccc1)Nc1ccc(Cl)cn1 | XTT | EC50 | CEM | - | - | WILD TYPE | >200 µM
CC(NC(=S)Nc1nc2ccccc2s1)c1ccccc1 | MTT | EC50 | MT-4 | N119 | - | IIIB | 8.2 µM
CCSCC1=C(C(=O)Nc2ccc(Cl)c(C(=O)OC(C)C)c2)SCCO1 | syncytia | EC50 | CEM | RT-L100I | - | TIBO-resistant (RT L100I) | 7 µg/mL
COCC[C@@]1(C)C(=O)c2c(O)c(=O)c(C(=O)NCc3ccc(F)cc3F)cn2C[C@@H]1OC | GFP | EC50 | MT-4 | - | 100% human serum | NL4-3 | 0.099 µM
Cc1cccc(NC(=S)NCCc2ccccc2F)n1 | MTT | EC50 | MT-2 | - | - | IIIB | 50 µM
C#CCOCn1c(Cc2cccc(C(F)(F)F)c2)c(C(C)C)c(=O)[nH]c1=O | MTT | EC50 | MT-4 | - | - | EFV-resistant (K103R V179D P225H) | >46 µM
O=C(c1ccccc1)N(CCc1ccccc1)C[C@H](O)CN(CC1CCCC1)S(=O)(=O)Cc1cncs1 | p24 | EC90 | CEM | - | - | IIIB | 1 µM
COCCC[C@@]1(C)C(=O)c2c(O)c(=O)c(C(=O)NCc3c(F)cccc3F)cn2C[C@@H]1OC | GFP | EC50 | MT-4 | - | 100% human serum | NL4-3 | 0.053 µM
S=C(Cc1ccccn1)NCCc1ccccc1 | XTT | EC50 | CEM | - | - | WILD TYPE | >200 µM
Nc1ccn([C@@H]2C=C[C@H](CO)O2)c(=O)n1 | - | EC50 | PBMC | - | - | - | 0.005 µM
CC(=O)N[C@@H](CSC(=O)C(C)(C)C)C(=O)NCCSC(=O)C(C)C | RT activity | EC50 | MDM | - | - | BaL | <150 µM
NC(N)=NCCC[C@H](N)C(=O)NC[C@@H]1OC(O[C@H]2[C@@H](O)[C@H](O[C@@H]3[C@@H](O)[C@H](NC(=O)[C@@H](N)CCCN=C(N)N)C[C@H](NC(=O)[C@@H](N)CCCN=C(N)N)[C@H]3O[C@H]3O[C@H](CNC(=O)[C@@H](N)CCCN=C(N)N)[C@@H](O)[C@H](O)[C@H]3NC(=O)[C@@H](N)CCCN=C(N)N)O[C@@H]2CO)[C@H](NC(=O)[C@@H](N)CCCN=C(N)N)[C@@H](O)[C@@H]1O | p24 / RT activity | EC50 | MT-2 | AZT-resistant | - | IIIB | 2.7 µM
COc1ccc(S(=O)(=O)N(CC(C)C)CC(O)CC(=O)N2CCN(Cc3cccnc3)C[C@H]2C(=O)NC(C)(C)C)cc1 | p24 | EC50 | CEM | - | - | IIIB | <1 µM
O=C(O[C@@H]1[C@H](OC(=O)c2ccccc2)[C@@H](CO)O[C@H]1n1cnc2c(N(C(=O)c3ccccc3)C(=O)c3ccccc3)ncnc21)c1ccccc1 | β-galactosidase | EC50 | HeLaP4 | - | - | NL4-3 | 1–2 µM
O=S(=O)(c1cccc2cnccc12)N1CCNCC1 | - | EC50 | - | - | - | LAI | <16.7 µM
COC1=C(Br)CC2(OC=C1Br)ON=C(C(=O)NCCCOc1c(Br)cc(CCN)cc1Br)[C@@H]2O | p24 | EC50 | U1(HIV-1 (LAV)) + U1 | - | - | LAV | 20–200 µM
Nc1nc(=O)n([C@@H]2C=C[C@H](CO)O2)cc1F | - | EC50 | PBMC | - | - | - | 0.51 µM
O=S(=O)(c1cccc2cnccc12)N1CCCNCC1 | - | EC50 | - | - | - | LAI | >16.7 µM
CC(=O)N[C@@H](CS)C(=O)NCCSC(=O)C(C)(C)C | RT activity | EC50 | MDM | - | - | BaL | 145 µM
CC1=C(C(=O)Nc2ccc(Cl)c(C(=O)OC3CCCCC3)c2)SCCO1 | syncytia | EC50 | CEM | - | - | IIIB | 0.04 µg/mL
N#CC(N)=NCCC[NH+]=C(N)NC(N)=NCCCCCC[NH+]=C(N)NC(N)=NCCN.[Cl-].[Cl-] | β-galactosidase | EC50 | HeLa | - | - | IIIB | 88 µM
Cc1cn([C@@H]2OC(O[Si](C)(C)C(C)(C)C)C3(OS(=O)(=O)C=C3NCCC(=O)OCc3ccccc3)C2O[Si](C)(C)C(C)(C)C)c(=O)n(C)c1=O | syncytia | EC50 | CEM | - | - | IIIB | >250 µM
COc1ccc(S(=O)(=O)N(CC(C)C)C[C@@H](O)CCN(CC2CCCC2)S(=O)(=O)CC(C)(C)C)cc1 | p24 | EC90 | CEM | - | - | IIIB | 1 µM
C[C@@]12CCCCC[C@]1(O)Cn1cc(C(=O)NCc3ccc(F)cc3F)c(=O)c(O)c1C2=O | GFP | EC50 | MT-4 | - | 100% human serum | NL4-3 | 0.06 µM
N#CC(N)=NCCCCN=C(N)NC(N)=[NH+]CCCCCC[NH+]=C(N)NC(N)=NCCN.[Cl-].[Cl-] | β-galactosidase | EC50 | HeLa | - | - | IIIB | 56.6 µM
O=c1nccc(NC(=S)NCCc2ccccc2F)[nH]1 | MTT | EC50 | MT-2 | - | - | IIIB | 88 µM
COc1cc([C@H]2c3c(cc(OC)c(OC)c3OC)C[C@H]3CSC[C@@H]32)cc(OC)c1OC | syncytia | EC50 | SUP-T1/H9(HIV-1IIIB) + Sup-T1 | - | - | IIIB | 0.43 µM
NS(=O)(=O)c1ccc(NC(=S)NCCc2ccccc2F)cc1 | MTT | EC50 | MT-2 | - | - | IIIB | 95.8 µM
CCOC(=O)c1cc(NC(=O)C2=C(C)OCCS2)ccc1Cl | syncytia | EC50 | CEM | - | - | IIIB | 0.1 µg/mL

A second listing of 10 rows from above:

compound | method | endpoint | cell line | mutations | conditions | strain or isolate | value
CC1CN(S(=O)(=O)c2cccc3cnccc23)CCN1 | - | EC50 | - | - | - | LAI | >16.7 µM
N#CC(N)=NCCCCCC[NH+]=C(N)NC(N)=NCCCCCCN=C(N)NC(N)=[NH+]CCCCCCN.[Cl-].[Cl-] | β-galactosidase | EC50 | HeLa | - | - | IIIB | 33 µM
C=CCOCn1c(Cc2c(F)c(F)cc(F)c2F)c(CC)c(=O)[nH]c1=O | MTT | EC50 | MT-4 | - | - | N119 (Y181C) | 40 µM
CCOC(=O)c1cc(NC(=O)C2=C(C)OCCS2)ccc1Cl | syncytia | EC50 | CEM | - | - | IIIB | 0.1 µg/mL
NS(=O)(=O)c1ccc(NC(=S)NCCc2ccccc2F)cc1 | MTT | EC50 | MT-2 | - | - | IIIB | 95.8 µM
CCn1c(COC(N)=O)nc(C(C)C)c1Oc1cc(C#N)cc(C#N)c1 | β-galactosidase / reporter gene | EC50 | HeLaP4 | - | - | NL4-3 | 0.023 µM
COCC1=C(C(=O)Nc2ccc(Cl)c(C(=O)OC(C)C)c2)SCCO1 | syncytia | EC50 | CEM | - | - | IIIB | 0.7 µg/mL
CC(C)CN(CC(F)(F)C(=O)[C@H](Cc1ccccc1)NC(=O)O[C@H]1CCOC1)S(=O)(=O)c1ccccc1 | p24 | EC90 | CEM | - | - | IIIB | 1 µM
CC(C)CN(C[C@H](O)[C@H](NC(=O)O[C@H]1CCOC1)Sc1ccccc1)S(=O)(=O)c1ccc(N)cc1 | syncytia | EC50 | MT-4 | - | - | - | >50 µM
Nc1ccn([C@H]2S[C@@H](CO)C=C2F)c(=O)n1 | - | EC50 | PBMC | - | - | - | 0.12 µM